# Measurements from paper PMC9312377.
# pEC50: −log10 of the molar value. Several values for one entry are separate records, joined by “and”; a condition that tells them apart may be missing. Equal values may be shown once.
# Tests used:
# [1] = system: rg-A/California/04/2009 (H1N1)pdm09 PA WT; conditions: read-out: BXA susceptibility in the plaque reduction assay (EC50 ± SEM), MDCK cells, 72 or 96 hpi
# [2] = system: recombinant B/Maryland/1/1959 virus E23K; conditions: E23K in recombinant B/Maryland/1/1959 virus; cited from earlier work
# [3] = biological target: recombinant A(H1N1)pdm09 PAN I38T (Influenza A virus, UniProt C3W5S0, DEL51-57/DEL61-72/E59G/I38T); experiment: Modified thermofluor assay, BXA-rPAN thermal stabilization; conditions: for SYPRO Orange signal: 37uM BXA
compound,measurement,setting,value
O=C1c2c(O)c(=O)ccn2N([C@@H]2c3ccccc3SCc3c2ccc(F)c3F)[C@@H]2COCCN12,pEC50,[1],9.66
same,EC50 increase,[2],no EC50 increase
same,SYPRO Orange signal,[3]; 30 °C,1299.91 RFU and 851.818 RFU and 903.99 RFU
same,SYPRO Orange signal,[3]; 31 °C,1564.82 RFU and 1263.46 RFU and 787.996 RFU
same,SYPRO Orange signal,[3]; 49 °C,2247.52 RFU and 1796.01 RFU and 1136.39 RFU
same,SYPRO Orange signal,[3]; 50 °C,2001.99 RFU and 1396.33 RFU and 1227.29 RFU
same,SYPRO Orange signal,[3]; 51 °C,1895.02 RFU and 1693.5 RFU and 1461.08 RFU
same,SYPRO Orange signal,[3]; 52 °C,2127.88 RFU and 1692.41 RFU and 1501.6 RFU
same,SYPRO Orange signal,[3]; 53 °C,1957.97 RFU and 1693.1 RFU and 1718.06 RFU
same,SYPRO Orange signal,[3]; 54 °C,1720.84 RFU and 1802.57 RFU and 1870.42 RFU
same,SYPRO Orange signal,[3]; 55 °C,1937.37 RFU and 1884.01 RFU and 2066.49 RFU
same,SYPRO Orange signal,[3]; 56 °C,2073.92 RFU and 2397.82 RFU and 2635.47 RFU
same,SYPRO Orange signal,[3]; 57 °C,2292.17 RFU and 2452.04 RFU and 2685.19 RFU
same,SYPRO Orange signal,[3]; 58 °C,2738.53 RFU and 2898.24 RFU and 3062.87 RFU
same,SYPRO Orange signal,[3]; 59 °C,3318.2 RFU and 3209.02 RFU and 3477.71 RFU
same,SYPRO Orange signal,[3]; 60 °C,3363.96 RFU and 3668.88 RFU and 3924.88 RFU
same,SYPRO Orange signal,[3]; 61 °C,3853.39 RFU and 3664.25 RFU and 3834.77 RFU
same,SYPRO Orange signal,[3]; 62 °C,4836.81 RFU and 4136.99 RFU and 4393.19 RFU
same,SYPRO Orange signal,[3]; 63 °C,4849.11 RFU and 4511.87 RFU and 4652.86 RFU
same,SYPRO Orange signal,[3]; 64 °C,5516.71 RFU and 5592.07 RFU and 5143.16 RFU
same,SYPRO Orange signal,[3]; 65 °C,6729.72 RFU and 6402.93 RFU and 5968.15 RFU
same,SYPRO Orange signal,[3]; 66 °C,7713.28 RFU and 7718.71 RFU and 6958.89 RFU
same,Tm (°C) with BXA,"[3]; A(H1N1)pdm09 PAN I38T 2 μM, BXA 37 μM",72 °C and 72.0 ± 0.1 °C
same,ΔTm (°C),"[3]; A(H1N1)pdm09 PAN I38T, DMSO vs BXA 37 μM",17 °C and 16.5 ± 0.3 °C
same,SYPRO Orange signal,"[3]; Panel A, I38T, 67 °C",9597.38 RFU and 10066.3 RFU and 8623.01 RFU
same,SYPRO Orange signal,"[3]; Panel A, I38T, 68 °C",12884 RFU and 13139.6 RFU and 11636.1 RFU
same,SYPRO Orange signal,"[3]; Panel A, I38T, 69 °C",19022.2 RFU and 19552.6 RFU and 17294.2 RFU
same,SYPRO Orange signal,"[3]; Panel A, I38T, 70 °C",31613.6 RFU and 31759.2 RFU and 28793.5 RFU
same,SYPRO Orange signal,"[3]; Panel A, I38T, 71 °C",52366 RFU and 52700 RFU and 47281.7 RFU
same,SYPRO Orange signal,"[3]; Panel A, I38T, 72 °C",83543.3 RFU and 84131.3 RFU and 74463.7 RFU
same,SYPRO Orange signal,"[3]; Panel A, I38T, 73 °C",122437 RFU and 123348 RFU and 108724 RFU
same,SYPRO Orange signal,"[3]; Panel A, I38T, 74 °C",162048 RFU and 162863 RFU and 142896 RFU
same,SYPRO Orange signal,"[3]; Panel A, I38T, 75 °C",190851 RFU and 191513 RFU and 170131 RFU
same,SYPRO Orange signal,"[3]; Panel A, I38T, 76 °C",205077 RFU and 206371 RFU and 185658 RFU
same,SYPRO Orange signal,"[3]; Panel A, I38T, 77 °C",210165 RFU and 210781 RFU and 192634 RFU
same,SYPRO Orange signal,"[3]; Panel A, I38T, 78 °C",209150 RFU and 210784 RFU and 193823 RFU
same,SYPRO Orange signal,"[3]; Panel A, I38T, 79 °C",206694 RFU and 208114 RFU and 190661 RFU
same,SYPRO Orange signal,"[3]; Panel A, I38T, 80 °C",203427 RFU and 205882 RFU and 185759 RFU
same,SYPRO Orange signal,"[3]; Panel A, I38T, 81 °C",199552 RFU and 202668 RFU and 181374 RFU
same,SYPRO Orange signal,"[3]; Panel A, I38T, 82 °C",195514 RFU and 198629 RFU and 177283 RFU
same,SYPRO Orange signal,"[3]; Panel A, I38T, 83 °C",190636 RFU and 194840 RFU and 174255 RFU
same,SYPRO Orange signal,"[3]; Panel A, I38T, 84 °C",185514 RFU and 190246 RFU and 170108 RFU
same,SYPRO Orange signal,"[3]; Panel A, I38T, 85 °C",180418 RFU and 185986 RFU and 165690 RFU
same,SYPRO Orange signal,"[3]; Panel A, I38T, 86 °C",175587 RFU and 181075 RFU and 160644 RFU
same,SYPRO Orange signal,"[3]; Panel A, I38T, 87 °C",170536 RFU and 175966 RFU and 155809 RFU
same,SYPRO Orange signal,"[3]; Panel A, I38T, 88 °C",166059 RFU and 170500 RFU and 150986 RFU
same,SYPRO Orange signal,"[3]; Panel A, I38T, 89 °C",160522 RFU and 165436 RFU and 144826 RFU
same,SYPRO Orange signal,"[3]; Panel A, I38T, 90 °C",156438 RFU and 160598 RFU and 140189 RFU
same,SYPRO Orange signal,"[3]; Panel A, I38T, 91 °C",151733 RFU and 155292 RFU and 131294 RFU
same,SYPRO Orange signal,"[3]; Panel A, I38T, 92 °C",146764 RFU and 150444 RFU and 124391 RFU
same,SYPRO Orange signal,"[3]; Panel A, I38T, 93 °C",141983 RFU and 143209 RFU and 121201 RFU
same,SYPRO Orange signal,"[3]; Panel A, I38T, 94 °C",136042 RFU and 136243 RFU and 110907 RFU
same,SYPRO Orange signal,"[3]; Panel A, I38T, 95 °C",129394 RFU and 133137 RFU and 100413 RFU
same,SYPRO Orange signal,"[3]; Panel A, I38T, 96 °C",124588 RFU and 130001 RFU and 96179.2 RFU
same,SYPRO Orange signal,"[3]; Panel A, I38T, 97 °C",118532 RFU and 123762 RFU and 93689 RFU
same,SYPRO Orange signal,"[3]; Panel A, I38T, 98 °C",113271 RFU and 118019 RFU and 90882.6 RFU
same,SYPRO Orange signal,"[3]; Panel A, I38T, 99 °C",103659 RFU and 109684 RFU and 94215.6 RFU
